This passage reports stoichiometry N results from publication PMC7864994, “Structure and binding properties of Pangolin-CoV spike glycoprotein inform the evolution of SARS-CoV-2” (2021).

The test deals with Pangolin-CoV S ectodomain (Pangolin coronavirus MP789 isolate spike) (Pangolin coronavirus MP789 isolate (from Malayan pangolin, Manis javanica)). Description: cryo-EM structure.

Turning to “Pangolin-CoV S ectodomain (Pangolin coronavirus MP789 isolate spike) (domain or fragment)”, the stoichiometry N was 3.

The stoichiometry N is a count of units in the complex or per binding partner.
